Laboratory results from patent US8012970B2, “Derivatives of 1-{[1,5-bis(4-chlorophenyl)-2-methyl-1H-pyrrol-3-yl]methyl}-4-methylpiperazine, synthesis process and uses thereof” (priority 2005, dated 2011).

Test system: M. tuberculosis 103471
Test: Antimycobacterial activity, MIC in Middlebrook 7H9 broth (NCCLS procedure)
Assay type: cell-based
Conditions: MNTD50/MIC ratio, VERO cells vs M. tuberculosis 103471

Cc1c(CN2CCSCC2)cc(-c2ccc(F)cc2)n1-c1ccccc1F [Compound 7c, N-(o-fluorophenyl)-2-methyl-3-thiomorpholinomethyl-5-(p-fluorophenyl)pyrrole]
Protection Index (PI): 16
